Anti-infective test results gathered from many reports (values: NIAID ChemDB through PubChem).

Shared fields: tests in culture; agent: Candida albicans

Rows are shuffled and stem from different studies. Blank or dashed fields: not listed here. ECn is the concentration giving n% inhibition of infection, replication or growth.

SMILES,read by,conditions,strain,endpoint,value
Nc1c(Br)cc(Br)cc1CNC1CCC(O)CC1,MTT,-,ATCC 90029,MIC,1000 µg/mL
COc1cc2c(ccc3cc(OC)c(O)c(OC)c32)cc1O,-,-,-,MIC,50 µg/mL
CC1CC(=O)N(CCc2ccccc2)C1=O,broth dilution / turbidity,-,ATCC 10231,MIC,125 µg/mL
COc1cc(OC)c2c(ccc3cc(O)c(O)cc32)c1,-,-,-,MIC,50 µg/mL
Cc1ccc(-c2cn(-c3ccc(Br)cc3)c(C)c2C(=O)O)cc1,-,-,40 strains,Mean MIC,158 µg/mL
COc1cc2c(cc1O)CCc1cc(O)cc(OC)c1-2,-,-,-,MIC,50 µg/mL
CCn1cc(C(=O)O)c(=O)c2cc(F)c(N3CCNCC3)cc21,-,-,-,MIC,312.5 µg/mL
NCc1c(-c2c(-c3ccc(F)cc3)[nH]c3ccccc23)c(CN)c2nc3ccccc3n2c1N,broth dilution,-,MTCC 227,MIC,>1000 µg/mL
NC(=NC1CCCC1)c1ccc(-c2ccc(-c3ccc(C(N)=NC4CCCC4)cc3)o2)cc1,-,-,Isolate 2281,MFC,50 µg/mL
COC(=O)CC1C(C)=CC2OC(=O)[C@@]3(C)CCC[C@@]1(C)[C@@H]23,-,-,CECT 1394,MIC,>100 µg/mL
CN[C@@H]1[C@H](O[C@@H]2OC[C@@H](O)[C@H](O)[C@H]2O)[C@@H](O)[C@H](O[C@H]2c3cc(C)c(C(=O)N[C@H](C)C(=O)O)c(O)c3-c3c(cc4c(c3O)C(=O)c3cc(OC)cc(O)c3C4=O)[C@@H]2O)O[C@@H]1C,-,-,A9540,MFC,10 µg/mL
O=C(ONC1=Nc2ccc(Cl)cc2SCC1)c1ccccc1,-,-,CBS 562,MIC,>100 µg/mL
C=C1[C@H](OC(=O)C(F)(F)F)C[C@@H]2[C@](C)(CCC[C@]2(C)C(=O)OC)[C@H]1CC(=O)OC,-,-,CECT 1394,MIC,>100 µg/mL
O=C(ONC1=Nc2cc(Cl)ccc2SCC1)c1ccccc1,-,-,CBS 562,MIC,>100 µg/mL
CC1CC(=O)N(c2ccc(F)cc2F)C1=O,broth dilution / turbidity,-,ATCC 10231,MIC,250 µg/mL
C[C@@]12CCC[C@]3(C)C4CC(=O)OCC4=CC(OC1=O)[C@@H]23,-,-,CECT 1394,MIC,>100 µg/mL
CCn1cc(C(=O)O)c(=O)c2cc(F)c(N3CCN(CN4C(=O)C(=Nc5ccc(S(=O)(=O)Nc6ncccn6)cc5)c5ccccc54)CC3)cc21,-,-,-,MIC,156 µg/mL
CS(=O)(=O)c1ccc(-c2[nH]c3ccccc3c2-c2c(CN)c(N)n3c(nc4ccccc43)c2CN)cc1,broth dilution,-,MTCC 227,MIC,500 µg/mL
CC(=O)ONC1=Nc2cc(Cl)ccc2SC1,-,-,CBS 562,MIC,25 µg/mL
O=C(Cn1c(=O)oc2cc(C(=O)c3ccccc3F)c(Cl)cc21)c1ccc(Br)cc1,-,-,ATCC 90028,MIC,128 µg/mL
COc1cc2c(cc1O)CCc1cc(OC)c(OC)c(O)c1-2,-,-,-,MIC,50 µg/mL
COC(=O)[C@@]1(C)CCC[C@]2(C)C3CC(=O)O[C@@]3(C)C=C[C@@H]12,-,-,CECT 1394,MIC,>100 µg/mL
CCn1cc(C(=O)O)c(=O)c2cc(F)c(N3CCN(CN4C(=O)/C(=N\c5ncc(Cc6cc(OC)c(OC)c(OC)c6)c(N)n5)c5ccccc54)CC3)cc21,-,-,-,MIC,156 µg/mL
Cc1c(C(=O)O)c(-c2ccc(Cl)cc2)cn1-c1ccc(F)cc1,-,-,40 strains,EC50,>83.33 µg/mL
Clc1ccccc1C(c1ccccc1)(c1ccccc1)n1ccnc1,-,18 h,Clinical isolates,MIC,2 µg/mL
CCn1cc(C(=O)O)c(=O)c2cc(F)c(N3CCN(CN4C(=O)C(=Nc5ccc(S(=O)(=O)Nc6ncnc(OC)c6OC)cc5)c5cc(Cl)ccc54)CC3)cc21,-,-,-,MIC,156 µg/mL
N#C/C(=N\Nc1ccc(Cl)cc1)c1nc2ccccc2o1,-,-,-,MIC,>200 µg/mL
Cc1c(C(=O)O)c(-c2ccc(F)cc2)cn1-c1ccc(F)cc1,-,-,40 strains,Mean MIC,41.67 µg/mL
NCc1c(-c2c(-c3ccc([N+](=O)[O-])cc3)[nH]c3ccccc23)c(CN)c2nc3ccccc3n2c1N,broth dilution,-,MTCC 227,MIC,1000 µg/mL
O=C(Cn1c(=O)oc2cc(C(=O)c3c(F)cccc3F)ccc21)c1ccccc1,-,-,ATCC 90028,MIC,128 µg/mL
Cc1cc(=O)n2c(oc3ccccc32)c1C#N,-,-,-,MIC,>200 µg/mL
Cc1ccc(-c2cn(-c3ccc(C)cc3)c(C)c2C(=O)O)cc1,-,-,40 strains,EC50,<93.79 µg/mL
CCn1cc(C(=O)O)c(=O)c2cc(F)c(N3CCN(CN4C(=O)C(=Nc5ccc(S(=O)(=O)Nc6ncccn6)cc5)c5cc(Br)ccc54)CC3)cc21,-,-,-,MIC,156 µg/mL
O=C(Cn1c(=O)oc2cc(C(=O)c3c(F)cccc3F)ccc21)c1ccc(Br)cc1,-,-,ATCC 90028,MIC,128 µg/mL
C[C@H]1[C@H](O)[C@@H](C)/C=C/C=C/C=C/C=C/C=C/C=C/C=C/[C@H](O[C@@H]2O[C@H](C)[C@@H](O)[C@H](N)[C@@H]2O)C[C@@H]2O[C@](O)(C[C@@H](O)C[C@@H](O)CC[C@H](O)[C@@H](O)C[C@@H](O)CC(=O)O[C@H]1C)C[C@H](O)[C@H]2C(=O)O,broth dilution / turbidity,-,ATCC 10231,MIC,0.97 µg/mL
Cc1ccc(-n2cc(-c3ccc(Br)cc3)c(C(=O)O)c2C)cc1,-,-,40 strains,EC50,>47.92 µg/mL
CC(=O)ONC1=Nc2ccccc2SC1c1ccccc1,-,-,CBS 562,MIC,>100 µg/mL
Cc1ccc(C(=O)Cn2c(=O)oc3cc(C(=O)c4cccc(F)c4)c(Cl)cc32)cc1,-,-,ATCC 90028,MIC,128 µg/mL
NCc1c(-c2c(-c3ccc(Br)cc3)[nH]c3ccccc23)c(CN)c2nc3ccccc3n2c1N,broth dilution,-,MTCC 227,MIC,500 µg/mL
O=C(Cn1c(=O)oc2cc(C(=O)c3cc(F)ccc3F)ccc21)c1ccc(Cl)cc1,-,-,ATCC 90028,MIC,128 µg/mL
Cc1ccc2c(c1)nc1c(CN)c(-c3c(-c4ccc([N+](=O)[O-])cc4)[nH]c4ccccc34)c(CN)c(N)n12,broth dilution,-,MTCC 227,MIC,1000 µg/mL
N#CC(=C1CCCCCC1)c1nc2ccccc2o1,-,-,-,MIC,<200 µg/mL
COc1ccc(-c2[nH]c3ccccc3c2-c2c(CN)c(N)n3c(nc4cc(C)ccc43)c2CN)cc1,broth dilution,-,MTCC 227,MIC,1000 µg/mL
COC(=O)NC1=Nc2ccc3ccccc3c2SC1,-,-,CBS 562,MIC,>100 µg/mL